A mixed list of measured activities; the numbers were collected in NIAID ChemDB.

Common to all: whole-cell or culture tests; species: Aspergillus fumigatus

Blank or dashed fields: not listed here. ECn is the concentration giving n% inhibition of infection, replication or growth. Neighbouring rows are from separate reports. Two numbers with a dash give a range or band. MIC50, MIC90 and the like: level of inhibition, or share of isolates inhibited.

compound	read by	endpoint	strain	changes	result
COc1ccc2nc(Sc3ccc(C)cc3)c(C3C(C#N)=C(N)Oc4c3c(=O)oc3ccccc43)cc2c1	broth dilution	MIC	MTCC 3008	-	1000 µg/mL
Cc1ccc2nc(/C(C#N)=C\c3cc4ccccc4nc3N3CCOCC3)[nH]c2c1	broth dilution	MIC	MTCC 3008	-	>1000 µg/mL
COc1cc(C=O)cc(OC)c1	agar	MIC	AF293	-	1000 µM
Cc1nc([N+](=O)[O-])cn1CC(=O)CN1CCN(C(c2ccccc2)c2ccc(Cl)cc2)CC1	broth dilution	MIC	ATCC 96918	-	100 µg/mL
Oc1cc(O)cc(O)c1	agar	MIC100	-	-	>1000 µg/mL
COc1ccc2nc(N3CCOCC3)c(CC(C#N)c3nc4ccc(C)cc4[nH]3)cc2c1	broth dilution	MIC	MTCC 3008	-	250 µg/mL
CCOC(=O)C1=C(N)N(c2nc(-c3ccc(Cl)cc3)cs2)C2=C(C(=O)CCC2)C1c1cc2ccccc2nc1F	broth dilution	MIC	MTCC 3008	-	200 µg/mL
Cc1ccc(C(F)(F)C(F)(F)c2ccc(C(C)(C)N)cc2)cc1	-	MIC100	MF5668	-	16 µg/mL
COc1cc(C(=O)O)cc(OC)c1O	agar	MIC100	-	-	>1000 µg/mL
O=C(Cn1cnc2ccccc21)N1CCN(C(c2ccccc2)c2ccc(Cl)cc2)CC1	broth dilution	MIC	ATCC 96918	-	100 µg/mL
C[C@@H](c1nc(-c2ccc(C#N)cc2)cs1)[C@](O)(Cn1cncn1)c1cc(F)ccc1F	-	MIC90	-	-	0.5–2 µg/mL
CCCCCCCCCCNC1CCc2cc(O)ccc2C1	-	MIC	-	-	>64 µM
COc1ccc(OC)c(C(=O)/C=C/c2cc3cc(OC)c(OC)cc3nc2Cl)c1	-	MIC	ATCC 26934	-	>50 µg/mL
CN(C)C1=NC(=O)/C(=C/c2ccccc2)S1	broth dilution	MIC100	ATCC 26934	-	>250 µg/mL
COc1cccc(C(CC(=O)c2ccccc2)C(C#N)C#N)c1OC	-	MIC	ATCC 26934	-	>50 µg/mL
COc1cc(C(C)=O)ccc1O	agar	MIC100	-	-	916 µg/mL
COc1ccc(Oc2c(C3C(C#N)=C(N)OC4=C3C(=O)CCC4)c(C)nn2-c2ccccc2)cc1	-	MIC	MTCC 3008	-	250 µg/mL
C[C@@H](c1ncncc1F)[C@](O)(Cn1cncn1)c1ccc(F)cc1F	-	MIC90	-	-	0.5–2 µg/mL
COc1ccc2nc(F)c(C3C(C#N)=C(N)N(c4nc(-c5ccc(Cl)cc5)cs4)C4=C3C(=O)CCC4)cc2c1	broth dilution	MIC	MTCC 3008	-	1000 µg/mL
CCCCCCCCCNC1CCc2cc(O)ccc2C1	-	MIC	-	-	64 µM
COc1ccc(Oc2c(C3C(C#N)=C(N)OC4=C3C(=O)CCC4)c(C)nn2-c2ccc(C)cc2)cc1	-	MIC	MTCC 3008	-	500 µg/mL
O=C(/C=C/c1ccc(Cl)cc1Cl)c1ccc(Cl)cc1Cl	-	MIC	ATCC 26934	-	>50 µg/mL
CCOc1ccccc1O[C@@H](c1ccccc1)[C@@H]1CNCCO1	-	MFC	10 clinical isolates	-	500 µg/mL
C[C@@H]1[C@H](O)[C@@H](C)/C=C/C=C/CC/C=C/C=C/C=C/C=C/C(O[C@H]2O[C@H](C)[C@@H](O)[C@H](N)[C@@H]2O)CC2O[C@](O)(CC(O)C(O)CCC(O)CC(O)CC(O)CC(=O)O[C@H]1C)CC(O)C2C(=O)O	broth dilution	MIC	MTCC 3008	-	100 µg/mL
COc1cc(O)c2c(c1)C(=O)c1c(cc3c(c1O)-c1c(cc(C)c(C(=O)N[C@H](C)C(=O)O)c1O)[C@H](O[C@@H]1O[C@H](C)[C@H](N)[C@H](O[C@@H]4OC[C@@H](O)[C@H](O)[C@@H]4O)[C@H]1O)[C@H]3O)C2=O	-	MIC	IAM2530	-	1.6 µg/mL
O=S(=O)(O)CCNCl	-	MIC90	ATCC 26933	-	16 µM
CCCCCCCCCNC1CCc2cccc(O)c2C1	-	MIC	-	-	64 µM
CC[C@@H]([C@H](C)O)n1ncn(-c2ccc(N3CCN(c4ccc(OC[C@@H]5CO[C@@](Cn6cncn6)(c6ccc(F)cc6F)C5)cc4)CC3)cc2)c1=O	-	MIC90	-	-	0.25–1 µg/mL
C[C@@H](n1ncc2cc(Br)ccc21)[C@](O)(Cn1cncn1)c1ccc(F)cc1F	-	MIC90	ATCC MYA-1163	-	0.5 µg/mL
CN(C)C1=NC(=O)/C(=C/c2ccc(F)cc2)S1	broth dilution	MIC100	ATCC 26934	-	>250 µg/mL
Clc1ccc(C(c2ccccc2)N2CCN(CCn3cncn3)CC2)cc1	broth dilution	MIC	ATCC 96918	-	200 µg/mL
Cc1ccc(-n2nc(C)c(C3C(C#N)=C(N)OC4=C3C(=O)CC(C)(C)C4)c2Oc2ccc(Cl)cc2)cc1	-	MIC	MTCC 3008	-	250 µg/mL
CCCCCCCCOc1ccc(-c2ccc(C(=O)NC3CC(NCCN)CNC(=O)[C@@H]4[C@@H](O)[C@@H](C)CN4C(=O)[C@@H](CO)NC(=O)[C@H]([C@H](O)Cc4ccccc4)NC(=O)[C@@H]4C[C@@H](O)CN4C(=O)[C@H]([C@@H](C)O)NC3=O)cc2)cc1	-	MIC	50 isolates	-	0.0625–0.5 µg/mL
CCCCCCCCNC1CCc2ccc(OC)cc2C1	-	MIC	-	-	>64 µM
COc1cccc(/C=C/C(=O)c2ccc(Br)cc2)c1OC	-	MIC	ATCC 26934	-	>50 µg/mL
C[C@@H]1[C@H](O)[C@@H](C)/C=C/C=C/C=C/C=C/C=C/C=C/C=C/[C@H](O[C@@H]2O[C@H](C)[C@@H](O)[C@H](N)[C@@H]2O)C[C@@H]2O[C@](O)(C[C@@H](O)C[C@@H](O)[C@H](O)CC[C@@H](O)C[C@@H](O)CC(=O)O[C@H]1C)C[C@H](O)[C@H]2C(=O)O	broth dilution	EC50	-	-	0.86 µg/mL
C[C@H]1[C@H](O)[C@@H](C)/C=C/C=C/C=C/C=C/C=C/C=C/C=C/[C@H](O[C@@H]2O[C@H](C)[C@@H](O)[C@H](N)[C@@H]2O)C[C@@H]2O[C@](O)(C[C@@H](O)C[C@@H](O)CC[C@H](O)[C@@H](O)C[C@@H](O)CC(=O)O[C@H]1C)C[C@H](O)[C@H]2C(=O)O	-	MIC90	60 isolates	-	1 µg/mL
CCOC(=O)C1=C(N)N(c2nc(-c3ccccc3O)cs2)C2=C(C(=O)CCC2)C1c1cc2cc(OC)ccc2nc1F	broth dilution	MIC	MTCC 3008	-	100 µg/mL
Cc1ccc(Sc2nc3ccc(C)cc3cc2C2C(C#N)=C(N)Oc3cc(C)oc(=O)c32)cc1	broth dilution	MIC	MTCC 3008	-	250 µg/mL
O=c1oc2ccccc2cc1-c1ccc(C2CSC(=Nc3ccccc3)N2CCN2C(=Nc3ccccc3)SCC2c2cc3ccccc3oc2=O)cc1	broth dilution	MIC	-	-	0.03 µg/mL
O=C(CN1CCN(C(c2ccccc2)c2ccc(Cl)cc2)CC1)Cn1cncn1	broth dilution	MIC	ATCC 96918	-	100 µg/mL
Cc1ccc(/C=C/C(=O)c2ccccc2)cc1	-	MIC	ATCC 26934	-	>50 µg/mL
O=C(CN1CCN(C(c2ccccc2)c2ccc(Cl)cc2)CC1)Cn1ccnc1	broth dilution	MIC	ATCC 96918	-	25 µg/mL
O=C(/C=C/c1ccc([N+](=O)[O-])cc1)c1ccccc1	-	MIC	ATCC 26934	-	>50 µg/mL
COc1ccc2nc(N3CCOCC3)c(/C=C(/C#N)c3nc4ccccc4[nH]3)cc2c1	broth dilution	MIC	MTCC 3008	-	1000 µg/mL
C=CCSCC=C	-	MIC80	28 isolates	-	54 µg/mL
N#CC1=C(N)N(c2nc(-c3ccccc3)cs2)C2=C(C(=O)CCC2)C1c1cc2cc(Cl)ccc2nc1F	broth dilution	MIC	MTCC 3008	-	1000 µg/mL
C/C=C/c1ccc(O)c(OC)c1	agar	MIC100	-	-	236 µg/mL
CN[C@@H]1[C@H](O)[C@@H](O)[C@H](O[C@H]2c3cc(C)c(C(=O)N[C@H](C)C(=O)O)c(O)c3-c3c(cc4c(c3O)C(=O)c3cc(OC)cc(O)c3C4=O)[C@@H]2O)O[C@@H]1C	-	MIC	IAM2530	-	3.1 µg/mL
CCC(C)CC(C)CCCCCCCCC(=O)N[C@H]1C[C@@H](O)[C@H](NCCN)NC(=O)[C@@H]2[C@@H](O)CCN2C(=O)[C@H]([C@H](O)CCN)NC(=O)[C@H]([C@H](O)[C@@H](O)c2ccc(O)cc2)NC(=O)[C@@H]2C[C@@H](O)CN2C(=O)[C@H]([C@@H](C)O)NC1=O	-	MIC90	-	-	0.06–0.5 µg/mL
COc1cc(O)c2c(=O)c3c(C)cc(O)cc3oc2c1	resazurin	EC50	CGMCC 3.5835	-	>250 µM
COc1ccc2nc(Sc3ccc(Cl)cc3)c(C3C(C#N)=C(N)Oc4c3c(=O)oc3ccc(C)cc43)cc2c1	broth dilution	MIC	MTCC 3008	-	500 µg/mL
COc1cc(O)c2c(c1)C1OC(=O)C[C@]1(C)OC2=O	resazurin	EC50	CGMCC 3.5835	-	>250 µM
CCC(C)n1ncn(-c2ccc(N3CCN(c4ccc(OC[C@H]5CO[C@](Cn6cncn6)(c6ccc(Cl)cc6Cl)O5)cc4)CC3)cc2)c1=O	broth dilution	MIC90	-	TR34 azole-resistant	>16 µg/mL
Cc1ccc(Oc2c(C3C(C#N)=C(N)OC4=C3C(=O)CC(C)(C)C4)c(C)nn2-c2ccc(C)cc2)cc1	-	MIC	MTCC 3008	-	>1000 µg/mL
COc1ccc(/C=C2\SC(N(C)C)=NC2=O)cc1	broth dilution	MIC100	ATCC 26934	-	>250 µg/mL
Cc1cc2c(C)cc(O)cc2c(=O)o1	resazurin	EC50	CGMCC 3.5835	-	>250 µM
COc1ccc(O)c(C=O)c1	agar	MIC	AF293	-	500 µM
CCCCCCCCCCCCCCNC1CCc2cccc(O)c2C1	-	MIC	-	-	>64 µM
Cc1nccn1CC(=O)CN1CCN(C(c2ccccc2)c2ccc(Cl)cc2)CC1	broth dilution	MIC	ATCC 96918	-	50 µg/mL
Cc1ccc2nc(F)c(C3C(C#N)=C(N)N(c4nc(-c5ccccc5)cs4)C4=C3C(=O)CCC4)cc2c1	broth dilution	MIC	MTCC 3008	-	1000 µg/mL
O=C(/C=C/c1ccccc1[N+](=O)[O-])c1ccccc1	-	MIC	ATCC 26934	-	>50 µg/mL
CCCCCOc1ccc(-c2cc(-c3ccc(C(=O)N[C@H]4C[C@@H](O)[C@@H](O)NC(=O)[C@@H]5[C@@H](O)[C@@H](C)CN5C(=O)[C@H]([C@H](O)CC(N)=O)NC(=O)[C@H]([C@H](O)[C@@H](O)c5ccc(O)c(OS(=O)(=O)O)c5)NC(=O)[C@@H]5C[C@@H](O)CN5C(=O)[C@H]([C@@H](C)O)NC4=O)cc3)no2)cc1	-	MIC	IFM41209	-	0.0078 µg/mL
C=CCSSSCC=C	-	MIC80	28 isolates	-	8 µg/mL
Cc1cc(O)cc2c(=O)oc(C[C@@H](C)O)cc12	resazurin	EC50	CGMCC 3.5835	-	>250 µM
Cc1ccc(-n2nc(C)c(C3C(C#N)=C(N)OC4=C3C(=O)CCC4)c2Oc2ccccc2)cc1	-	MIC	MTCC 3008	-	500 µg/mL
CC(=O)C1SC(=Nc2ccccc2)N(CCN2C(=Nc3ccccc3)SC(C(C)=O)C2C)C1C	broth dilution	MIC	-	-	0.49 µg/mL
N#CC1=C(N)Oc2c(c(=O)oc3ccccc23)C1c1cc2ccccc2nc1Sc1ccc(Cl)cc1	broth dilution	MIC	MTCC 3008	-	>1000 µg/mL
O=[N+]([O-])c1ccc(CNC2CCc3c(O)cccc3C2)cc1	-	MIC	-	-	>64 µM
COc1ccc2nc(F)c(C3C(C#N)=C(N)N(c4nc(-c5ccccc5)cs4)C4=C3C(=O)CCC4)cc2c1	broth dilution	MIC	MTCC 3008	-	1000 µg/mL
Nc1[nH]c(=O)ncc1F	-	MIC90	-	-	>64 µg/mL

For reference, 6 entries again:

compound	read by	endpoint	strain	changes	result
Cc1ccc(/C=C/C(=O)c2ccccc2)cc1	-	MIC	ATCC 26934	-	>50 µg/mL
Cc1ccc(-n2nc(C)c(C3C(C#N)=C(N)OC4=C3C(=O)CCC4)c2Oc2ccccc2)cc1	-	MIC	MTCC 3008	-	500 µg/mL
CCC(C)CC(C)CCCCCCCCC(=O)N[C@H]1C[C@@H](O)[C@H](NCCN)NC(=O)[C@@H]2[C@@H](O)CCN2C(=O)[C@H]([C@H](O)CCN)NC(=O)[C@H]([C@H](O)[C@@H](O)c2ccc(O)cc2)NC(=O)[C@@H]2C[C@@H](O)CN2C(=O)[C@H]([C@@H](C)O)NC1=O	-	MIC90	-	-	0.06–0.5 µg/mL
O=C(CN1CCN(C(c2ccccc2)c2ccc(Cl)cc2)CC1)Cn1cncn1	broth dilution	MIC	ATCC 96918	-	100 µg/mL
CCCCCCCCCCCCCCNC1CCc2cccc(O)c2C1	-	MIC	-	-	>64 µM
COc1cc(O)c2c(c1)C1OC(=O)C[C@]1(C)OC2=O	resazurin	EC50	CGMCC 3.5835	-	>250 µM